What was measured:
Assay in all cases: cell-based or functional assay
[1] = target: T1, hERG, Q12809
T1 chain: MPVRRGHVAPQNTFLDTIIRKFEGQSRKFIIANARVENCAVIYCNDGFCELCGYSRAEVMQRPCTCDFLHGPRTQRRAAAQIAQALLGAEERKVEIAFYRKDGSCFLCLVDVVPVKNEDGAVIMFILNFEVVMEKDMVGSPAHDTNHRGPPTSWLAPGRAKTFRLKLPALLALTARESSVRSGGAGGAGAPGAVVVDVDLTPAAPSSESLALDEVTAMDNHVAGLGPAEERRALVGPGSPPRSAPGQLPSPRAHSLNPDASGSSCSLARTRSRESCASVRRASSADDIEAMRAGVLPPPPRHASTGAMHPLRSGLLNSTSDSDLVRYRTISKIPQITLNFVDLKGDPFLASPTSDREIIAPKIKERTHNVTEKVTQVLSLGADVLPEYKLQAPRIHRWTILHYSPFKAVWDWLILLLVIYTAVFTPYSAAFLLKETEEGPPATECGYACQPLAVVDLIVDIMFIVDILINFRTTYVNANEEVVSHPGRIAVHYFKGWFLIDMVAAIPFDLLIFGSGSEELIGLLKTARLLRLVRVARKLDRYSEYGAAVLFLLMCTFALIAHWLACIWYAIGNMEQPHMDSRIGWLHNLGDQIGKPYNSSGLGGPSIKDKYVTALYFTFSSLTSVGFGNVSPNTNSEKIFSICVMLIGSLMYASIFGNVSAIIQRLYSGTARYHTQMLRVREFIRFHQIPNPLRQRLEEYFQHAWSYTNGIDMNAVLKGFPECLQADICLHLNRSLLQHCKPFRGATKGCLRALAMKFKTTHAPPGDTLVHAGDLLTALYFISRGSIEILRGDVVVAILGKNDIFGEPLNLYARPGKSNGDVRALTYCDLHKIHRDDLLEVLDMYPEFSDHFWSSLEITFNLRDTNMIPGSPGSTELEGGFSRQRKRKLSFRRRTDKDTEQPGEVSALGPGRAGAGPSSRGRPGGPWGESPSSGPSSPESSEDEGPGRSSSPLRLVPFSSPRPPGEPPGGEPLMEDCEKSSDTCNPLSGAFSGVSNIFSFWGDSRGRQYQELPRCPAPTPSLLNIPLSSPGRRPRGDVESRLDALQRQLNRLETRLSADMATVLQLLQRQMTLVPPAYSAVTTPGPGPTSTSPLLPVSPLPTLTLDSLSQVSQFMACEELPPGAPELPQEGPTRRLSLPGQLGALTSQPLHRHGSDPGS

[2] = target: human Kv1.3 (hKv1.3) channel (human), P22001
[3] = target: T2, Kv1.1, Q09470
T2 chain: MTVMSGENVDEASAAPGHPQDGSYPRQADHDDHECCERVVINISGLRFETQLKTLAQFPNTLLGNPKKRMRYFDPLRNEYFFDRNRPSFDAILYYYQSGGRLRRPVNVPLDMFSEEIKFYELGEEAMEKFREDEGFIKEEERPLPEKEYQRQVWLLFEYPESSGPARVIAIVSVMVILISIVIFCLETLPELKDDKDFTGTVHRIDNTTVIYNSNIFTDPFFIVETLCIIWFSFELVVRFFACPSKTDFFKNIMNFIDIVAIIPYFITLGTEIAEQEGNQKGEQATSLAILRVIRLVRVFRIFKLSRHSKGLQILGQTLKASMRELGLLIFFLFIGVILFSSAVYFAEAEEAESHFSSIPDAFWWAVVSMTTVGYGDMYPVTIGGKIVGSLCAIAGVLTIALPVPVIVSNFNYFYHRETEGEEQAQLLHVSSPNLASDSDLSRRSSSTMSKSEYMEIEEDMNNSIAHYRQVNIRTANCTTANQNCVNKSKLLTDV

[4] = target: T3, Kv1.2, P16389
T3 chain: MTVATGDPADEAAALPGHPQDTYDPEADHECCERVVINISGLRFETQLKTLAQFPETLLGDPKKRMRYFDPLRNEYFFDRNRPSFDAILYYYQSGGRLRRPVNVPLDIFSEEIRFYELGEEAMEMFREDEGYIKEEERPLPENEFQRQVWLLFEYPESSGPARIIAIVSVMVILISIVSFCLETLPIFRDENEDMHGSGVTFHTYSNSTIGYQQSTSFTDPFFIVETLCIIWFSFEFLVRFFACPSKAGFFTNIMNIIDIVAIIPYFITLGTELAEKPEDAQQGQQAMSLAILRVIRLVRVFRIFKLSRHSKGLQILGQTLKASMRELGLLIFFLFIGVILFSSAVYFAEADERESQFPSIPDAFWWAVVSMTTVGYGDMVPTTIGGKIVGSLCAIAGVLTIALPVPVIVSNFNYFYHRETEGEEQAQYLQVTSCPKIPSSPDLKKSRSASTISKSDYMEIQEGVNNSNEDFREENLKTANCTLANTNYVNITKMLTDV

Binder: ASCRTPKQCARPCRKQTGCPYGKCMNRKCKCNRC (modifications not checked) [cgtx 539]
- Normalized Block of hERG current at 20 µM (patch clamp, HEK cells) [1]: 0.16
- Normalized Block of hERG current at 40 µM (patch clamp, HEK cells) [1]: 0.19

Binder: ASCRTPKQCYPHCKKETGCPYGKCMNRKCKCNRC (modifications not checked) [cgtx 540]
- Normalized Block of hERG current at 8 µM (patch clamp, HEK cells) [1]: 0.04
- Normalized Block of hERG current at 16 µM (patch clamp, HEK cells) [1]: 0.13

Binder: ASCRTPKDCADPCRKETGCPNAKCMNRKCKCYGC (modifications not checked) [cgtx 538]
- Normalized Block of hERG current at 600 nM (patch clamp, HEK cells) [1]: 0.05

Binder: QFTNVSCTTSKECWSVCQRLTGCPYGKCMNRKCKCNRC (modifications not checked) [cgtx 547]
- Normalized Block of hERG current at 5.5 µM (patch clamp, HEK cells) [1]: 0.07
- Normalized Block of hERG current at 11 µM (patch clamp, HEK cells) [1]: 0.12

Binder: GVPINVSCTGSPQCIKPCKDATGCPYGKCMNRKCKCNRC (modifications not checked) [cgtx 543]
- Normalized Block of hERG current at 8.5 µM (patch clamp, HEK cells) [1]: -0.03
- Normalized Block of hERG current at 17 µM (patch clamp, HEK cells) [1]: 0.01

Binder: TIINVKCTSPKQCLPPCKAQTGCPYGKCMNRKCKCNRC (modifications not checked) [cgtx-544(Mix)]
- Normalized Block of hERG current at 5 µM (patch clamp, HEK cells) [1]: 0.04
- Normalized Block of hERG current at 10 µM (patch clamp, HEK cells) [1]: 0.07
- IC50, block of Kv1.3 current, peptide in human plasma, time point 0 h [2]: 20.9 nM
- IC50, block of Kv1.3 current, peptide in rat plasma, time point 0 h [2]: 15 nM

Binder: TIINVKCTSPKQCLPPCKAQTGCPYGKCMNRKCKCNRC (modifications not checked) [cgtx-544(Sing)]
- IC50, block of Kv1.1 current (Patchliner, Sf21 cells) [3]: 6000 nM
- IC50, block of Kv1.2 current (Patchliner, stably transfected CHO cells) [4]: 2500 nM
- IC50, block of Kv1.3 current after about 20 min incubation (patch clamp) [2]: 0.9 nM
- IC50, block of Kv1.3 current, peptide in human blood serum [2]: 7 nM

Binder: ARCRTPRDCADPCRKETGCPYGKCMNRKCRCNRC (modifications not checked) [cgtx 541]
- Normalized Block of hERG current at 2.5 µM (patch clamp, HEK cells) [1]: 0.09
- Normalized Block of hERG current at 5 µM (patch clamp, HEK cells) [1]: 0.16

Binder: ARCRTSRNCAKPCRKQTGCPYGKCMNRKCRCNRC (modifications not checked) [cgtx 542]
- Normalized Block of hERG current at 1.5 µM (patch clamp, HEK cells) [1]: 0.08
- Normalized Block of hERG current at 3 µM (patch clamp, HEK cells) [1]: 0.19
